Results of unrelated studies side by side (data: NIAID ChemDB).

All rows: growth or infection tests; species: HIV-1; read-out: inhibition

Percent inhibition refers to the dose given; in toxicity tests it is the harm to the cells. An empty or dashed field is not shown. Neighbouring rows are from separate reports. Two numbers with a dash give a range or band.

compound	strain or isolate	changes	cells	read by	setting	tested at	result
C[C@@H](C/C=C1\O[C@H]2C[C@H]3[C@@H]4CC=C5C[C@@H](O[C@@H]6O[C@H](CO)[C@H](O[C@@H]7O[C@H](CO)[C@@H](O)[C@H](O[C@@H]8OC[C@@H](O)C(O)[C@H]8O)[C@H]7O[C@@H]7O[C@H](CO)[C@@H](O)[C@H](O)[C@H]7O)[C@H](O)[C@H]6O)CC[C@]5(C)[C@H]4CC[C@]3(C)[C@H]2[C@]1(C)O)CO[C@@H]1O[C@H](CO)[C@@H](O)[C@H](O)[C@H]1O	-	-	SupT1	luciferase / single cycle	pseudotyped	30 µM	51%
O=C1OCC2OC(O)C(O)C(O)C2OC(=O)c2cc(O)c(O)c(O)c2-c2c(O)c(O)c3oc(=O)c4c(c(O)c(O)c5oc(=O)c2c3c54)-c2c1cc(O)c(O)c2O	IIIB	-	H9	p24	-	1 µg/mL	30%
O=S(=O)(O)c1c2ccccc2c(-c2c3nc(c(-c4c5ccccc5c(S(=O)(=O)O)c5ccccc45)c4ccc([nH]4)c(-c4c5ccccc5c(S(=O)(=O)O)c5ccccc45)c4nc(c(-c5c6ccccc6c(S(=O)(=O)O)c6ccccc56)c5ccc2[nH]5)C=C4)C=C3)c2ccccc12	IIIB	-	MAGI	β-galactosidase	-	50 µg/mL	97%
CCOC(=O)P(=O)(O)OC[C@H]1O[C@@H](n2cc(C)c(=O)[nH]c2=O)C[C@@H]1N=[N+]=[N-]	-	-	CD4/T + CD4	RT activity	-	100 µM	100%
CC(C)CN(C[C@@H](O)[C@H](Cc1ccccc1)NC(=O)[C@@H](NC(=O)CNC(C)(C)c1ccc(F)cc1)C(C)(C)C)S(=O)(=O)c1ccc(N)cc1	RF	-	MT-2	-	-	90 µM	<1%
O=C(O)[C@H]1O[C@@H](Oc2cc3oc(-c4ccccc4)cc(=O)c3c(O)c2O)[C@H](O)[C@@H](O)[C@@H]1O	ENV(BAL31)	-	HOS-CD5-CCR5 + HOS	-	-	400 µM	80%
CC(C)CN(C[C@@H](O)[C@H](Cc1ccccc1)NC(=O)[C@@H](NC(=O)[C@@H](C)NC(C)(C)c1ccccc1)C(C)(C)C)S(=O)(=O)c1ccc(N)cc1	RF	-	MT-2	-	-	90 µM	<1%
O=C1O[C@@H]2[C@@H](OC(=O)c3cc(O)c(O)c(O)c3-c3c1cc(O)c(O)c3O)[C@@H](O)O[C@@H]1COC(=O)c3cc(O)c(O)c(O)c3-c3c(O)c(O)c4oc(=O)c5c(c(O)c(O)c6oc(=O)c3c4c65)-c3c(cc(O)c(O)c3O)C(=O)O[C@@H]21	IIIB	-	H9	p24	-	0.2 µg/mL	2%
O=C1NC(=S)N[C@@H]1c1ccc(-c2ccccc2)cc1	-	-	MT-4	cytopathic effect / XTT	-	10 µg/mL	0%
CC(O)[C@H]1[C@@H](OC(=O)CC[C@H](C)CO[C@@H]2O[C@H](CO)[C@@H](O)[C@H](O)[C@H]2O)C[C@H]2[C@@H]3CC=C4C[C@@H](O[C@@H]5O[C@H](CO)[C@H](O[C@@H]6O[C@H](CO)[C@@H](O)[C@H](O[C@@H]7OC[C@@H](O)C(O)[C@H]7O)[C@H]6O[C@@H]6O[C@H](CO)[C@@H](O)[C@H](O)[C@H]6O)[C@H](O)[C@H]5O)CC[C@]4(C)[C@H]3CC[C@@]21C	-	-	SupT1	luciferase / single cycle	pseudotyped	30 µM	48.42%
C[C@H](Cn1cnc2c(N)ncnc21)OCP(=O)(O)OP(=O)(O)OCCOCn1cnc2c(=O)[nH]c(N)nc21	BaL	-	Macrophage	-	-	1 µM	0%
O=c1oc2cc(O)cc(O)c2c(O)c1-c1coc2c1c(=O)oc1cc(O)cc(O)c12	IIIB	-	MT-4	MTT	-	1 µM	60%
O=C(O)C[C@@H]1C(=O)O[C@H]2[C@@H]3OC(=O)c4cc(O)c(O)c(O)c4-c4c(cc(O)c(O)c4O)C(=O)OC[C@H]2O[C@@H](OC(=O)c2cc(O)c(O)c(O)c2)[C@@H]3OC(=O)c2cc(O)c(O)c3c2[C@H]1[C@H](O)C(=O)O3	IIIB	-	H9	p24	-	1 µg/mL	50%
CCOc1ccccc1CCNC(=S)Nc1nccs1	-	-	MT-4	cytopathic effect / XTT	-	10 µg/mL	100%
C[C@@H](O)[C@H](N)C(=O)N[C@H](C(=O)N[C@@H](CO)C(=O)N[C@@H](Cc1ccc(O)cc1)C(=O)N[C@H](C(=O)O)[C@@H](C)O)[C@@H](C)O	LAV	-	A3.01	RT activity	-	0.001 µM	72.9%
N#Cc1cc(Cl)cc(Oc2c(Cl)ccc3c2nnn3Cc2[nH]nc3nc(N)ccc23)c1	-	Y181C	MT-4	-	-	0.037 µM	>95%
O=C1[C@@H](Cc2ccccc2)NC(=S)N1c1ccccc1	-	-	MT-4	RT activity	-	1 µg/mL	41%
CC[C@H](CO)Nc1nc(NCc2ccc(-c3ccccc3)cc2)n2ncc(C(C)C)c2n1	-	-	U1	trypan blue	-	0.05 µM	1–5%
CCCCCCCCCCCCCCCCOCC(COC(=O)CCC(=O)OC1CC(COP(=O)(O)OC2CC(COP(=O)(O)OC3CC(CO)OC3n3cnc4c(N)ncnc43)OC2n2cnc3c(N)ncnc32)OC1n1cnc2c(N)ncnc21)OCCCCCCCCCCCCCCCC	IIIB	-	SupT1 + Sup-T1	syncytia	-	300 µM	90%
CC(=O)[C@H]1[C@@H](OC(=O)CC[C@H](C)CO[C@@H]2O[C@H](CO)[C@@H](O)[C@H](O)[C@H]2O)C[C@H]2[C@@H]3CC=C4C[C@@H](O[C@@H]5O[C@H](CO)[C@H](O[C@@H]6O[C@H](CO)[C@@H](O)[C@H](O[C@@H]7OC[C@@H](O)C(O)[C@H]7O)[C@H]6O[C@@H]6O[C@H](CO)[C@@H](O)[C@H](O)[C@H]6O)[C@H](O)[C@H]5O)CC[C@]4(C)[C@H]3CC[C@@]21C	-	-	SupT1	luciferase / single cycle	pseudotyped	30 µM	51.99%
Cc1c2ccnc(Cl)c2cc2c3cn(C)ccc-3nc12	GAR (resistant strain)	-	Macrophages	p24 / ELISA	-	1 µM	100%
CC#C[C@]1(O)CC[C@H]2[C@@H]3CCC4=CC(=O)CCC4=C3[C@@H](c3ccc(N(C)C)cc3)C[C@@]21C	NL4-3	-	CEMx174	p24 / GFP	-	10 µM	88%
O=C(NCCc1ccccc1)Nc1nc2c(Cl)cccc2s1	-	-	MT-4	cytopathic effect / XTT	-	10 µg/mL	19%
CCCCC/C=C/C=C1/C(=O)C=CC1C/C=C\CCCC(=O)O	-	-	U-937	p24 / ELISA	-	3.1 µM	85%
CCCCCCCCCCCCCCCC(=O)OCC(COC(=O)CCC(=O)OC1CC(COP(=O)(O)OC2CC(COP(=O)(O)OC3CC(CO)OC3n3cnc4c(N)ncnc43)OC2n2cnc3c(N)ncnc32)OC1n1cnc2c(N)ncnc21)OC(=O)CCCCCCCCCCCCCCC	IIIB	-	SupT1 + Sup-T1	syncytia	-	300 µM	96.7%
N#Cc1cc(Cl)cc(Oc2c(Cl)ccc3c2nnn3Cc2[nH]nc3ncccc23)c1	-	K103N	MT-4	-	-	0.0038 µM	>95%
O=C(Nc1ncnc2c1ncn2[C@@H]1O[C@H](CO)[C@@H](OC(=O)c2ccccc2)[C@H]1OC(=O)c1ccccc1)c1ccccc1	NL4-3	-	HeLaP4	β-galactosidase	-	10 µM	100%
O=C(O)C[C@H]1C(=O)O[C@H]2[C@H](OC(=O)c3cc(O)c(O)c(O)c3)[C@@H](OC(=O)c3cc(O)c(O)c4c3[C@H]1[C@H](O)C(=O)O4)[C@H](OC(=O)c1cc(O)c(O)c(O)c1)O[C@@H]2COC(=O)c1cc(O)c(O)c(O)c1	IIIB	-	H9	p24	-	5 µg/mL	80%
C[C@H]1CC[C@@]2(OC1)O[C@H]1C[C@H]3[C@@H]4CC=C5C[C@@H](O[C@@H]6O[C@H](CO)[C@H](O[C@@H]7O[C@H](CO)[C@@H](O)[C@H](O)[C@H]7O[C@@H]7O[C@H](CO)[C@@H](O)[C@H](O)[C@H]7O)[C@H](O)[C@H]6O)CC[C@]5(C)[C@H]4CC(=O)[C@]3(C)[C@H]1[C@@H]2C	-	-	SupT1	luciferase / single cycle	pseudotyped	30 µM	62.19%
O=C(NCCc1ccccc1)Nc1nc(-c2ccc(Br)cc2)cs1	-	-	MT-4	cytopathic effect / XTT	-	10 µg/mL	0%
CCN(CC)C(=S)N=Nc1c(O)n(C)c2ccccc12	-	-	H9/HIV-1 + H9	plaque count	chronic infection	0.6 µg/mL	100%
CCCCCCCCCCCCCCCC(=O)OCC(COC(=O)CCC(=O)OCC1CC(OP(=O)(O)OCC2CC(OP(=O)(O)OCC3CC(O)C(n4cnc5c(N)ncnc54)O3)C(n3cnc4c(N)ncnc43)O2)C(n2cnc3c(N)ncnc32)O1)OC(=O)CCCCCCCCCCCCCCC	IIIB	-	SupT1 + Sup-T1	syncytia	-	300 µM	99.2%
CC(=O)O[C@H]1C[C@@]2(C)[C@@H](C[C@@H](O)C3[C@]2(C)CC[C@H]2[C@H](C)[C@H](O)CC[C@]32C)/C1=C(/CCC=C(C)C)C(=O)O	IIIB	-	Macrophage + Monocytes/macrophages	p24	-	10 µg/mL	90%
CCc1nnc(NC(=O)NCCc2ccccc2)s1	-	-	MT-4	cytopathic effect / XTT	-	100 µg/mL	17%
C[C@@H](CC[C@@]1(O)O[C@H]2C[C@H]3[C@@H]4CC=C5C[C@@H](O[C@@H]6O[C@H](CO)[C@H](O[C@@H]7O[C@H](CO)[C@@H](O)[C@H](O[C@@H]8OC[C@@H](O)C(O)[C@H]8O)[C@H]7O[C@@H]7O[C@H](CO)[C@@H](O)[C@H](O)[C@H]7O)[C@H](O)[C@H]6O)CC[C@]5(C)[C@H]4CC(O)[C@]3(C)[C@H]2[C@@H]1C)CO[C@@H]1O[C@H](CO)[C@@H](O)[C@H](O)[C@H]1O	-	-	SupT1	luciferase / single cycle	pseudotyped	30 µM	46.2%
O=C(O)CCC(CCC(=O)O)(CCC(=O)O)NC(=O)CCC(CCC(=O)NC(CCC(=O)O)(CCC(=O)O)CCC(=O)O)(CCC(=O)NC(CCC(=O)O)(CCC(=O)O)CCC(=O)O)NC(=O)CCCOC(=O)C1(C(=O)OCCCC(=O)NC(CCC(=O)NC(CCC(=O)O)(CCC(=O)O)CCC(=O)O)(CCC(=O)NC(CCC(=O)O)(CCC(=O)O)CCC(=O)O)CCC(=O)NC(CCC(=O)O)(CCC(=O)O)CCC(=O)O)C2c3cc4c5c6c3-c3c(cc7c8c3C6C3c6c-5c(cc5ccc9cc(c-8c3c9c65)C7)C4)C21	LAI	-	PBMC	cytopathic effect	-	1.8 µM	90%
C/C(=C(/CCO)SS/C(CCO)=C(\C)N(C=O)Cc1cnc(C)nc1N)N(C=O)Cc1cnc(C)nc1N	IIIB	-	MOLT-4/IIIB + MOLT-4	-	-	250 µM	99%
CC(=O)[C@H]1[C@@H](OC(=O)CC[C@H](C)CO[C@@H]2O[C@H](CO)[C@@H](O)[C@H](O)[C@H]2O)C[C@H]2[C@@H]3CC=C4C[C@@H](O[C@@H]5O[C@H](CO)[C@H](O[C@@H]6O[C@H](CO)[C@@H](O)[C@H](O[C@@H]7OC[C@@H](O)C(O)[C@H]7O)[C@H]6O[C@@H]6O[C@H](CO)[C@@H](O)[C@H](O)[C@H]6O)[C@H](O)[C@H]5O)CC[C@]4(C)[C@H]3CC(=O)[C@@]21C	-	-	SupT1	luciferase / single cycle	pseudotyped	30 µM	29.42%
C=C(C=O)[C@@H]1CC[C@@]2(C)C1C1CCC3[C@@]4(C)CC[C@H](O)C(C)(C)C4CC[C@@]3(C)[C@]1(C)C[C@@H]2O	-	-	CEM.NKR-CCR5	-	-	0.3 µM	66%
CCC(O)[NH+]1CC[NH+](C(O)CC)CC1.[Cl][Pt-2]([Cl])([Cl])([Cl])([Cl])[Cl]	-	-	Jurkat cells	luciferase / β-galactosidase	-	3 µM	38%
O=C(O)C1=C[C@@H](OC(=O)c2cc(O)c(O)c(O)c2)[C@@H](OC(=O)c2cc(O)c(O)c(O)c2)[C@H](OC(=O)c2cc(O)c(O)c(O)c2)C1	IIIB	-	H9	p24	-	0.2 µg/mL	0%
Cc1cc(C)cc(S(=O)(=O)c2c(C(=O)NCC(=O)NC(C)C(=O)NN)[nH]c3ccc(Cl)cc23)c1	EFV-resistant (RT K103R V179D P225H)	-	C8166	p24	-	1 µM	90%
O=S(=O)(O)c1ccc(-c2c3nc(c(-c4ccc(S(=O)(=O)O)cc4)c4ccc([nH]4)c(-c4ccc(S(=O)(=O)O)cc4)c4nc(c(-c5ccccc5)c5ccc2[nH]5)C=C4)C=C3)cc1	IIIB	-	MAGI	β-galactosidase	-	5 µg/mL	48%
Cc1ccc(-c2ccc3c(c2)C=C(C(=O)Nc2ccc(C[N+](C)(C)C4CCOCC4)cc2)CCC3)cc1	COT6 CLADE C	-	PBMC	p24	-	5 µM	100%
N#Cc1cc(Cl)cc(Oc2c(Cl)ccc3c2cnn3Cc2[nH]nc3nc(N)ccc23)c1	-	K103N	MT-4	-	-	0.0097 µM	>95%
O=C(NCCc1ccccc1)Nc1nc(-c2ccc(Cl)cc2)cs1	-	-	MT-4	cytopathic effect / XTT	-	10 µg/mL	0%

For reference, 3 entries again:

C[C@@H](O)[C@H](N)C(=O)N[C@H](C(=O)N[C@@H](CO)C(=O)N[C@@H](Cc1ccc(O)cc1)C(=O)N[C@H](C(=O)O)[C@@H](C)O)[C@@H](C)O ; strain or isolate: LAV ; cells: A3.01 ; read by: RT activity ; tested at: 0.001 µM ; result: 72.9%
CCCCCCCCCCCCCCCCOCC(COC(=O)CCC(=O)OC1CC(COP(=O)(O)OC2CC(COP(=O)(O)OC3CC(CO)OC3n3cnc4c(N)ncnc43)OC2n2cnc3c(N)ncnc32)OC1n1cnc2c(N)ncnc21)OCCCCCCCCCCCCCCCC ; strain or isolate: IIIB ; cells: SupT1 + Sup-T1 ; read by: syncytia ; tested at: 300 µM ; result: 90%
O=C1[C@@H](Cc2ccccc2)NC(=S)N1c1ccccc1 ; cells: MT-4 ; read by: RT activity ; tested at: 1 µg/mL ; result: 41%